{"source": "patent US8501450B2", "about": "“Hepatitis C virus variants” (priority 2005, dated 2013)", "key": {"[1]": {"molecular_target": "mutant HCV protease V36L (Hepatitis C virus genotype 1a, UniProt P27958, V1062L)", "settings": "apparently fold change vs wild-type"}, "[2]": {"test_system": "HCV replicon, R109K variant", "assay": "Replicon Assay (Table 5)", "settings": "apparently fold change vs wild-type, SD in next cell"}, "[3]": {"test_system": "HCV replicon, V170A variant", "assay": "Replicon Assay (Table 5)", "assay_type": "cell-based, Hepatitis C virus", "settings": "apparently fold change vs wild-type, SD in next cell"}, "[4]": {"test_system": "HCV replicon, T54A variant", "assay": "Replicon Assay (Table 5)", "settings": "apparently fold change vs wild-type, SD in next cell"}}}
{"compound": "CCC[C@H](NC(=O)[C@@H]1[C@H]2CCC[C@H]2CN1C(=O)[C@@H](NC(=O)[C@@H](NC(=O)c1cnccn1)C1CCCCC1)C(C)(C)C)C(=O)C(=O)NC1CC1", "note": "[VX-950]", "values": [{"measurement": "Resistance, Enzyme Assay", "setting": "[1]", "value": 2.2}, {"measurement": "Resistance, Replicon Assay", "setting": "[2]", "value": 0.8}, {"measurement": "Resistance, Replicon Assay", "setting": "[3]", "value": 2.6}, {"measurement": "Resistance, Replicon Assay", "setting": "[4]", "value": 6.3}]}
